Results on one compound are retold here after paper PMC10567917 (Archives of Toxicology, 2023).

Read-outs that look alike come from different tables or passages of the source.

The test system of data set [1] is primary mouse hepatocytes.
Data set [2] concerns primary rat hepatocytes. The note with it: for Formation rate: rat, calculated from medium samples, linear time points.
Data set [3] relates to primary human hepatocytes. The note with it: for concentration in culture medium: human hepatocytes; for Formation rate: human, calculated from medium samples, linear time points.

Regarding `COc1cc2c(c3oc(=O)c4c(c13)CC[C@@H]4O)[C@@H]1C=CO[C@@H]1O2`, the “highest concentration in culture medium” value in data set [1] (mouse hepatocytes, 10 µM AFB1, within 2 h) stood at 1 nM. The Formation rate in data set [1] (mouse, 10 µM AFB1 (20 nmol), calculated from medium samples, linear time points) is listed as 1 163 pmol/h; in data set [2] (1 µM AFB1 (2 nmol)), 306 pmol/h; in data set [2] (10 µM AFB1 (20 nmol)) it was 6 702 pmol/h; in data set [3] (1 µM AFB1 (2 nmol)), 1 109 pmol/h; in data set [3] (10 µM AFB1 (20 nmol)) it was 18 923 pmol/h. In addition, in data set [2] (rat hepatocytes, 1 µM and 10 µM AFB1, up to 24 h), the “detection in culture medium” value is reported as “detected only in trace amounts”. Moreover, the “concentration in culture medium” value in data set [3] (1 µM AFB1, within the first 4 h, constant up to 24 h) was found to be 2 nM; in data set [3] (10 µM AFB1, reached in the first 4 h, then constant until 24 h), 50 nM.
